Measurements as given in patent publication US5438118A (SmithKline Beechman Corp., priority 1993, dated 1995).

Assay: general procedure: solution-phase peptide synthesis; BOP/HOBt/NEt3; DCC/HOBt; symmetrical anhydride (Boc-Ala)2O from DCC
Conditions: late stage modification step, HPLC (PRP-1)

Substance: 2-[3-benzyl-5-(1-alanylamino-ethyl)-2,3,6,7-tetrahydro-1H-azepinyl]-1-oxo- propyl-valinyl-valine methyl ester
- final HPLC purity: >90%
